Patent US20090196872A1

Target: M2 protein expressed on A/PR/8/34 infected MDCK cells (influenza A virus A/PR/8/34) (UniProt P06821)
Experiment: cell-based or functional assay

## isotype matched human monoclonal anti-HSA IgG1 antibody
  ADCC: lysis of A/PR/8/34 infected MDCK cells, antibody 5 ug/mL, […] cells: 25%
